A mixed list of measured activities; the numbers were collected in NIAID ChemDB.

All rows: whole-cell or culture tests; agent: HIV-1; measure: EC50

a–b is a range or a potency band. ECn is the concentration giving n% inhibition of infection, replication or growth. Blank or dashed fields: not listed here. Conditions beyond the fields shown may differ between rows.

SMILES	changes	setting	cell line	strain or isolate	value
CC[C@H](C)[C@H](NC(=O)[C@@H]1CCCN1P(=O)(OC)C(CC1CCCCC1)NC(=O)OCc1ccccc1)C(=O)NCC(C)C	-	-	C8166	RF	8 µM
CCc1c(C)c2c(c(C)c1C1=NC(=O)C(c3cc(-c4c(C)c5c(c(C)c4CC)[C@](C)(O)C[C@@H]5C)[nH]c3O)=C1)[C@H](C)C[C@]2(C)O	-	-	CEM + CEM-4	-	2 µg/mL
CC[C@H](C)[C@H](NC(=O)[C@@H](Cc1ccccc1)NP(=O)(OC)C(Cc1ccccc1)NC(=O)C(CC(N)=O)NC(=O)OC(C)(C)C)C(=O)NCC(C)C	-	-	C8166	RF	>100 µM
Nc1ncnc2c1ncn2[C@H]1CC[C@@H](CO)O1	-	-	C8166	RF	2 µM
Cc1ccc(Cn2cc(Cc3ccc(F)cc3)cc(/C(O)=C/C(=O)C(=O)O)c2=O)cc1	-	-	MAGI	-	1.6 µM
C=C1[C@H](CO)[C@H]1Cn1cnc2c(=O)[nH]cnc21	-	-	-	-	>100 µM
OC[C@@H]1C[C@H](n2cnc3c(=S)nc[nH]c32)[C@@H](O)[C@H]1O	-	-	PBMC	-	49.8 µM
CCC(C)[C@H](NC(=O)[C@@H]1CCCN1[P@](=O)(OC)[C@H](Cc1ccccc1)NC(=O)[C@H](CC(N)=O)NC(=O)OC(C)(C)C)C(=O)NCC(C)C	-	-	C8166	RF	>100 µM
Cc1cn([C@@H]2C[C@@H](O)[C@@](CO)(N=[N+]=[N-])O2)c(=O)[nH]c1=O	-	-	A3.01	LAV	>200 µM
COc1c2c(cc3c1[C@H](c1ccc(O)c(Oc4ccccc4)c1)[C@H]1C(=O)OC[C@@H]1C3)OCO2	-	-	MT-4	IIIB	5.17 µM
O=C(O)C(=O)/C=C(\O)c1cc(Cc2ccccc2)cn(Cc2ccc(F)c(Cl)c2)c1=O	-	-	MAGI	-	0.8 µM
CC(C)Nc1ncnc2c1ncn2C1C[C@H](CO)[C@@H](CO)C1	-	-	CEM	-	>100 µg/mL
Cc1cn([C@H]2C[C@H](N=[N+]=[N-])[C@@H](CO)O2)c(=O)[nH]c1=O	-	-	C8166	-	0.029 µg/mL
Cc1ccc(NC(=O)NCCSCc2ccc(CNC(C)C)o2)cc1Cl	-	-	U1	-	<75 µM
C=C1[C@H](CO)[C@H]1Cn1cnc2c(N)ncnc21	-	-	-	-	>100 µM
CCCCCCCCCCCCCC(=O)NCC(OCC)OCC	-	-	MT-4	LAV	<10 µM
O=c1[nH]c(=O)n(C2C[C@H](CO)[C@@H](CO)C2)cc1I	-	-	CEM	-	>100 µg/mL
CC[C@H](C)[C@H](NC(=O)[C@H](Cc1ccccc1)NP(=O)(OC)C(N)Cc1ccccc1)C(=O)NCC(C)C	-	-	C8166	RF	20 µM
COc1cc(C(OC(=O)c2ccc3c(c2)OCO3)[C@H](C)C(C)O)ccc1O	-	-	C8166	-	4.22 µg/mL
CC(C)=CCN1Cc2cccc3[nH]c(=S)n(c23)C[C@@H]1C	-	-	MT-4	IIIB	0.29 µM
Cc1ccnc(C)c1C(=O)N1CCC(C)(N2CCN([C@@H](C)c3ccc(C(F)(F)F)cc3)[C@@H](C)C2)CC1	-	-	TZM-bl	JR-FL	0.39 µM
CC[C@H](C)[C@H](NC(=O)[C@@H]1CCCN1[P@](=O)(OC)C(Cc1ccccc1)NC(=O)OCc1ccccc1)C(=O)NCC(C)C	-	-	C8166	RF	25 µM
Cc1nc2cc3nn2c(c1[C@H](OC(C)(C)C)C(=O)O)-c1ccc2c(c1Cl)N(CCCCCCOc1cccc(c1)-c1cccc-3c1)CCO2	-	10% FBS	MT-2	NL4-3	0.03 µM
Cc1cn([C@@H]2O[C@H](COCC(C)C)C3(OS(=O)(=O)C=C3N)[C@H]2O[Si](C)(C)C(C)(C)C)c(=O)n(C)c1=O	-	-	MT-4	-	4.5 µM
Nc1ncnc2c1ncn2[C@@H]1C[C@H](CO)[C@H]1CO	-	-	-	-	0.3 µg/mL
COc1cc2c(c3oc(=S)cc(C)c13)[C@@H](OC(=O)C13CCC(C)(C(=O)O1)C3(C)C)[C@@H](OC(=O)C13CCC(C)(C(=O)O1)C3(C)C)C(C)(C)O2	-	-	H9	IIIB	1.46 µM
COC[C@@H](c1ccc(C(F)(F)F)cc1)N1CCN(C2(C)CCN(C(=O)c3c(C)ncnc3C)CC2)C[C@@H]1C	V535M	-	TZM-bl	R14/S	0.03 µM
O=c1c2cc(O)ccc2oc2cccc(O)c12	-	-	-	-	1 µg/mL
O=S(=O)(c1cccc2cnccc12)N1CCCNCC1	-	-	-	LAI	>16.7 µM
Cc1cc2c(OCc3ccccc3)cc3c(c2oc1=O)[C@@H](OC(=O)C12CCC(C)(C(=O)O1)C2(C)C)[C@@H](OC(=O)C12CCC(C)(C(=O)O1)C2(C)C)C(C)(C)O3	-	-	H9	IIIB	1.54 µM
CS(C)=O	-	-	-	LAI	>16.7 µM
O=C(O)C(=O)/C=C(\O)c1cc(Cc2ccccc2F)cn(Cc2ccc(F)cc2)c1=O	-	-	MAGI	-	0.8 µM
COc1ccnc2[nH]cc(C(=O)C(=O)N3CCN(C(=O)c4ccccc4)C[C@H]3C)c12	-	-	MT-2	LAI	0.00268 µM
O=C(O)C(=O)/C=C(\O)c1cc(Cc2ccccc2F)cn(Cc2ccccc2F)c1=O	-	-	MAGI	-	0.7 µM
C=C1[C@H](CO)[C@H]1Cn1cnc2c(Cl)ncnc21	-	-	-	-	>100 µM
CC(C)Cc1cc(-c2ccc(-c3ccc(CCC(=O)O)cc3CC(C)C)cc2C(C)C)ccc1OCC(=O)O	-	-	-	-	15.7 µg/mL
Cc1cc(C)cc(S(=O)(=O)c2c(C(N)=O)[nH]c3ccc(Cl)cc23)c1	WT	-	CEM	IIIB	>10 µM
CC1CNCCN1S(=O)(=O)c1cccc2cnccc12	-	-	-	LAI	<16.7 µM
Cc1ccc(OCCn2ccc(=O)[nH]c2=O)c(Cc2ccccc2)c1	Y181C	-	-	-	0.24 µM
COc1ccc2[nH]c(C(=O)NCc3ccc(Cl)c(Oc4cc(Cl)cc(C#N)c4)c3)cc2c1	-	-	HeLa	HXB2	0.01–1 µM
Cc1cccc(Cn2cc(Cc3ccc(F)c(Cl)c3)cc(/C(O)=C/C(=O)C(=O)O)c2=O)c1	-	-	MAGI	-	2.2 µM
CC1(c2nc3ccccc3[nH]2)CCC(C(N)=O)C(C)(C)O1	-	-	CEM + CEM-SS	RF	>0.063 µM
COc1cc2c(cc1Cc1cccc(Cl)c1F)c(=O)c(C(=O)O)cn2[C@H](CO)C(C)C	-	-	MT-4	IIIB	0.0033 µM
Nc1ccc([C@H]2CC(=O)[C@@H](CO)O2)c(F)c1	-	-	CEM	-	>250 µM
C=C1[C@H](CO)[C@H]1Cn1cnc2c(N)nc(N)nc21	-	-	-	-	>100 µM
Cc1cn([C@H]2C[C@H](N=[N+]=[N-])[C@@H](CO)[C@@H]2F)c(=O)[nH]c1=O	-	-	-	-	100 µg/mL
O=c1[nH]c(=O)n([C@@H]2C=C(CO)CO2)cc1Br	-	-	MT-4	-	>100 µg/mL
O=S(=O)(c1cccc2c(Cl)cccc12)N1CCCNCC1	-	-	-	LAI	>16.7 µM
N#Cc1c(-c2ccco2)nc(SCC(=O)Nc2nc(-c3ccccc3)cs2)[nH]c1=O	-	-	MDM	BaL	4.7 µM
COc1cc([C@H]2c3c(cc(OC)c(OC)c3OC)C[C@H]3CSC[C@@H]32)cc(OC)c1OC	-	-	MT-4	IIIB	1.03 µM
Cc1c(C)c2ccc3c(c2oc1=S)[C@@H](OC(=O)C12CCC(C)(C(=O)O1)C2(C)C)[C@@H](OC(=O)C12CCC(C)(C(=O)O1)C2(C)C)C(C)(C)O3	-	-	H9	IIIB	0.0334 µM
Clc1cc2nc(C3CCCCO3)[nH]c2cc1Cl	-	-	CEM + CEM-SS	RF	>2 µM
O=c1[nH]c(=O)n([C@H]2C=C(CO)CO2)cc1F	-	-	MT-4	-	>100 µg/mL
Cc1cn([C@@H]2O[C@H](CO[Si](C)(C)C(C)(C)C)[C@@]3(OS(=O)(=O)C([N+](=O)[O-])=C3N)[C@H]2O[Si](C)(C)C(C)(C)C)c(=O)n(C)c1=O	-	-	CEM	-	7 µM
Cc1cn([C@H]2C=C(CO)CS2)c(=O)[nH]c1=O	-	-	MT-4	-	>100 µg/mL
CC1(c2nc3ccccc3[nH]2)CCC(C#N)C(C)(C)O1	-	-	CEM + CEM-SS	RF	>0.063 µM
NCCNS(=O)(=O)c1cccc2cnccc12	-	-	-	LAI	>16.7 µM
O=c1ccn([C@@H]2C[C@H](CO)C[C@H]2CO)c(=O)[nH]1	-	-	CEM	-	>100 µg/mL
Cc1ccc(-n2sc3ccccc3c2=O)cc1	-	-	MDM	BaL	4 µM
Cc1cn([C@@H]2CC[C@@](CO)(N=[N+]=[N-])O2)c(=O)[nH]c1=O	-	-	A3.01	LAV	>11.1 µM
O=c1ccn([C@H]2C=C(CO)CS2)c(=O)[nH]1	-	-	MT-4	-	>100 µg/mL
CCCCCCCCCCCCCC(=O)OC[C@H]1O[C@@H](n2cnc3c(N)ncnc32)[C@@H]1CO	-	-	MT-4	IIIB	2.4 µg/mL
Cc1cc2c(c3oc(=S)ccc13)[C@@H](OC(=O)C13CCC(C)(C(=O)O1)C3(C)C)[C@@H](OC(=O)C13CCC(C)(C(=O)O1)C3(C)C)C(C)(C)O2	-	-	H9	IIIB	0.0199 µM
O=C(O)C(=O)/C=C(\O)c1cc(Cc2ccccc2)cn(Cc2ccc(F)c(Cl)c2F)c1=O	-	-	MAGI	-	0.6 µM

8 of the rows above, restated:

SMILES,changes,setting,cell line,strain or isolate,value
Nc1ncnc2c1ncn2[C@@H]1C[C@H](CO)[C@H]1CO,-,-,-,-,0.3 µg/mL
CC[C@H](C)[C@H](NC(=O)[C@@H]1CCCN1P(=O)(OC)C(CC1CCCCC1)NC(=O)OCc1ccccc1)C(=O)NCC(C)C,-,-,C8166,RF,8 µM
Cc1ccc(-n2sc3ccccc3c2=O)cc1,-,-,MDM,BaL,4 µM
Cc1cc2c(c3oc(=S)ccc13)[C@@H](OC(=O)C13CCC(C)(C(=O)O1)C3(C)C)[C@@H](OC(=O)C13CCC(C)(C(=O)O1)C3(C)C)C(C)(C)O2,-,-,H9,IIIB,0.0199 µM
O=C(O)C(=O)/C=C(\O)c1cc(Cc2ccccc2)cn(Cc2ccc(F)c(Cl)c2)c1=O,-,-,MAGI,-,0.8 µM
COc1cc2c(cc1Cc1cccc(Cl)c1F)c(=O)c(C(=O)O)cn2[C@H](CO)C(C)C,-,-,MT-4,IIIB,0.0033 µM
O=C(O)C(=O)/C=C(\O)c1cc(Cc2ccccc2)cn(Cc2ccc(F)c(Cl)c2F)c1=O,-,-,MAGI,-,0.6 µM
COC[C@@H](c1ccc(C(F)(F)F)cc1)N1CCN(C2(C)CCN(C(=O)c3c(C)ncnc3C)CC2)C[C@@H]1C,V535M,-,TZM-bl,R14/S,0.03 µM